Values joined by “and” are separate entries in the source; they are usually repeats but may differ in a detail not shown here. Equal entries are not always repeated. Where two headings read alike, the source gives them in different places.
Tests used:
[1] = system: SARS-CoV-2 USA-WA1/2020; type: cell-based; conditions: Vero E6, SI = CC50/EC50
[2] = system: SARS-CoV-2 USA-WA1/2020; type: cell-based; conditions: 293T-ACE2, SI = CC50/EC50

Row | Molecule | SARS-CoV-2 SI [1] | SARS-CoV-2 SI [2] | other results
1 | CN(C)CCOc1cc2c(c3ccccc13)-c1ccccc1C2=O [1a] | <0.06 | – | –
2 | OC(CNCC1CCCO1)Cn1c2ccc(Br)cc2c2cc(Br)ccc21 (centres unmarked) [1b] | 1.48 | – | –
3 | Fc1nc(N2CCNCC2)c(F)c(Sc2ccc(Cl)cc2)c1F [2a] | > 3.21 | 8.44 | –
4 | CCC(=C(c1ccccc1)c1ccc(OCCN(C)C)cc1)c1ccc(O)cc1 [4'OH-tamoxifen] | 3.65 | – | –
5 | O=C1c2c(O)ccc(O)c2C(=O)c2c(NCCNCCO)ccc(NCCNCCO)c21 [Mitoxantrone, reference compound] | 0.34 | – | –
6 | CCC(CC)COC(=O)[C@H](C)N[P@](=O)(OC[C@H]1O[C@@](C#N)(c2ccc3c(N)ncnn23)[C@H](O)[C@@H]1O)Oc1ccccc1 [Remdesivir, reference compound] | >46.7 | >192 | SARS-CoV-2 SI ([2]; listed as remdesivir): > 192; SARS-CoV-2 SI ([1]; listed as remdesivir): > 46.7
7 | CCN(CC)CCOc1ccc(C(O)(Cc2ccc(Cl)cc2)c2ccc(C)cc2)cc1 (centres unmarked) [Triparanol, reference compound] | >24.7 | – | SARS-CoV-2 SI ([1]; listed as triparanol): > 24.7
8 | CC1CN(C(c2ccccc2)(c2ccccc2)c2ccccc2)CCN1 (centres unmarked) [Trityl-piperazine] | 3.45 | >13.6 | SARS-CoV-2 SI ([2]; listed as trityl-piperazine): > 13.6
9 | CCN(CC)CCCC(C)Nc1ccc2ccccc2n1 (centres unmarked) [qn1] | >2.1 | – | –
10 | CC(C)CCN1CCC(CNc2nc3ccccc3c(=O)[nH]2)CC1 [qz2] | > 2.7 and >2.66 | > 55 | –
11 | NCCCc1cn(C(c2ccccc2)(c2ccccc2)c2ccccc2)cn1 [trim] | > 25.7 | 71.2 | –
12 | CN(C)CCOc1ccc(C(=C(CCO)c2ccccc2)c2ccccc2)cc1 [βOH-tamoxifen] | 4.11 | – | –
13 | Homochlorcyclizine [reference compound] | >5.57 | – | SARS-CoV-2 SI ([1]; listed as homochlorcyclizine): > 5.57
